Data taken from the supplement of paper PMC4709259.
± gives the standard deviation. This is a selection; strong and weak results do not stand in their true shares.

Assays:
Jurkat [1] = assay: mean cell size (FSC-A) relative to DMSO control (fraction of control); higher = larger cells; settings: concentration: 25 µM; 48 h
Method in brief: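 Jurkat cells at 600 cells/µl were incubated for 1 h and then treated for 48h with the Enzo Screen-Well FDA Approved Drug Library v2.0 at 25µM, with DMSO at 0.9% (v/v) final. Compounds that reduced counts below 20% of controls were retested in 10-fold dilutions down to 25nM. Cell count and mean cell size, taken as forward scatter area, were measured by flow cytometry relative to solvent-only controls. Each plate carried 6-12 controls, and values are means of 3 biological replicates.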

Jurkat [2] = assay: cell count relative to DMSO control (fraction of control); higher = more cells (less growth inhibition); settings: concentration: 25 µM; 48 h

Work on `[As+3].[As+3].[O-2].[O-2].[O-2]` [Arsenic Trioxide] yielded a mean cell size (Jurkat [1]) of 0.876 ± 0.013 and a cell count (Jurkat [2]) of 0.503 ± 0.072.
